Results of unrelated studies side by side (data: NIAID ChemDB).

All rows: tests in culture; agent: Mycobacterium avium

Neighbouring rows are from separate reports.

SMILES	setting	read-out	method	strain or isolate	result
CO[C@H]1/C=C/O[C@@]2(C)Oc3c(C)c(O)c4c(O)c(c(N5CCN(Cc6c(C)cc(C)cc6C)CC5)c(O)c4c3C2=O)NC(=O)/C(C)=C\C=C\[C@H](C)[C@H](O)[C@@H](C)[C@@H](O)[C@@H](C)[C@H](OC(C)=O)[C@@H]1C	-	MIC50	-	50 strains	0.06 µg/mL
CCN1CCN(c2c(F)cc3c(=O)c(C(=O)O)cn(C4CC4)c3c2OC)CC1	-	MIC	-	14 strains	0.1–12.5 µg/mL
CC(N)C1CCN(c2nc3c(cc2F)c(=O)c(C(=O)O)cn3C2CC2)C1	-	MIC90	-	14 strains	32 µg/mL
CC[C@H]1OC(=O)[C@H](C)[C@@H](O[C@H]2C[C@@](C)(OC)[C@@H](O)[C@H](C)O2)[C@H](C)[C@@H](O[C@@H]2O[C@H](C)C[C@H](N(C)C)[C@H]2O)[C@](C)(OC)C[C@@H](C)C(=O)[C@H](C)[C@@H](O)[C@]1(C)O	-	MIC	-	ATCC 25291	2 µg/mL
O=c1[nH]c2ccccc2c(=O)n1-c1cccc([N+](=O)[O-])c1	-	MIC	-	MY330/88	>125 µM
CO[C@H]1/C=C/O[C@@]2(C)Oc3c(C)c(O)c4c(O)c(c(/C=N/N5CCN(C)CC5)c(O)c4c3C2=O)NC(=O)/C(C)=C\C=C\[C@H](C)[C@H](O)[C@@H](C)[C@@H](O)[C@@H](C)[C@H](OC(C)=O)[C@@H]1C	-	MIC90	-	Clinical strains	>16 µg/mL
CC1CN(c2cc3c(cc2F)c(=O)c(C(=O)O)cn3-c2ccc(F)cc2F)CCN1	-	MIC	-	ATCC 25291	32 µg/mL
Cc1cc(NS(=O)(=O)c2ccc(NC(=O)N(C(C)C)C(C)C)cc2)no1	21 d	MIC100	broth dilution / absorbance	330/88	>1000 µM
CN[C@@H]1[C@H](O[C@H]2[C@H](O[C@H]3[C@H](O)[C@@H](O)[C@H](N=C(N)N)[C@@H](O)[C@@H]3N=C(N)N)O[C@@H](C)[C@]2(O)C=O)O[C@@H](CO)[C@H](O)[C@H]1O	-	MIC	-	ATCC 15769	0.69 µM
CC(C)(C)n1cc(C(=O)O)c(=O)c2cc(F)c(N3CCC(N)C3)nc21	-	MIC	-	14 strains	0.1–12.5 µg/mL
CN[C@@H]1[C@H](O[C@H]2[C@H](O[C@H]3[C@H](O)[C@@H](O)[C@H](N=C(N)N)[C@@H](O)[C@@H]3N=C(N)N)O[C@@H](C)[C@]2(O)C=O)O[C@@H](CO)[C@H](O)[C@H]1O	-	MIC	-	453-C clarithromycin-resistant	8 µg/mL
O=C(Nc1ccc([N+](=O)[O-])cc1)c1ccccc1O	-	MIC	-	MY330/88	31 µM
Cc1cc(NS(=O)(=O)c2ccc(NC(=O)Nc3ccc(S(=O)(=O)Nc4cc(C)on4)cc3)cc2)no1	21 d	MIC100	broth dilution / absorbance	330/88	62.5 µM
CC1CN(c2c(F)c(N)c3c(=O)c(C(=O)O)cn(C4CC4)c3c2F)CCN1C	-	MIC	-	LR114R	0.06 µg/mL
CC[C@@H](CO)NCCN[C@@H](CC)CO	-	MIC90	-	Clinical strains	16 µg/mL
Cc1ccc(-n2c(=O)oc3ccccc3c2=O)cc1	-	MIC	-	MY330/88	62 µM
CC(C)N=c1cc2n(-c3ccc(Cl)cc3)c3ccccc3nc-2cc1Nc1ccc(Cl)cc1	-	MIC	-	3011-C clarithromycin-resistant	0.12 µg/mL
CO[C@H]1/C=C/O[C@@]2(C)Oc3c(C)c(O)c4c(O)c(c5c(c4c3C2=O)NC2(CCN(CC(C)C)CC2)N=5)=NC(=O)/C(C)=C\C=C\[C@H](C)[C@H](O)[C@@H](C)[C@@H](O)[C@@H](C)[C@H](OC(C)=O)[C@@H]1C	-	MIC	-	Isolate 90-1816	0.2 µg/mL
CC[C@H]1OC(=O)[C@H](C)[C@@H](O[C@H]2C[C@@](C)(OC)[C@@H](O)[C@H](C)O2)[C@H](C)[C@@H](O[C@@H]2O[C@H](C)C[C@H](N(C)C)[C@H]2O)[C@](C)(OC)C[C@@H](C)C(=O)[C@H](C)[C@@H](O)[C@]1(C)O	-	MIC	-	3011	1 µg/mL
CC1=CC(=O)c2c(ccc(C3=C(C)C(=O)c4cccc(O)c4C3=O)c2O)C1=O	-	MFC	-	-	90 µg/mL
CC(C)N=c1cc2n(-c3ccc(Cl)cc3)c3ccccc3nc-2cc1Nc1ccc(Cl)cc1	-	MIC90	-	Clinical strains	2 µg/mL
CC[C@H]1OC(=O)[C@H](C)[C@@H](O[C@H]2C[C@@](C)(OC)[C@@H](O)[C@H](C)O2)[C@H](C)[C@@H](O[C@@H]2O[C@H](C)C[C@H](N(C)C)[C@H]2O)[C@](C)(OC)C[C@@H](C)C(=O)[C@H](C)[C@@H](O)[C@]1(C)O	-	MIC	-	RG3	0.12 µg/mL
CC1CN(c2nc3c(cc2F)c(=O)c(C(=O)O)cn3C(C)(C)C)CCN1	-	MIC	-	14 strains	0.1–12.5 µg/mL
CN(C)C/C=C(/c1ccc(-c2ccc(Br)cc2)cc1)c1cccs1	-	MIC	-	ATCC 15769	40.4 µM
CCCCNC(=O)Nc1ccc(S(=O)(=O)Nc2cc(C)on2)cc1	21 d	MIC100	broth dilution / absorbance	330/88	1000 µM
C[C@@H]1CN(c2c(F)c(N)c3c(=O)c(C(=O)O)cn(C4CC4)c3c2F)C[C@H](C)N1	-	MIC	-	-	4 µg/mL
O=C(O)c1cn(C2CC2)c2c(F)c(N3CCN4CCC3C4)c(F)cc2c1=O	-	MIC	-	RG3	0.25 µg/mL
CC[C@H]1OC(=O)[C@H](C)[C@@H](O[C@H]2C[C@@](C)(OC)[C@@H](O)[C@H](C)O2)[C@H](C)[C@@H](O[C@@H]2O[C@H](C)C[C@H](N(C)C)[C@H]2O)[C@](C)(O)C[C@@H](C)CN(C)[C@H](C)[C@@H](O)[C@]1(C)O	-	MIC	-	453	16 µg/mL
CCn1cc(C(=O)O)c(=O)c2ccc(C)nc21	-	MIC	-	3 strains	256 µg/mL
COc1ccc(NC(=O)c2ccccc2N)cc1	-	MIC	-	MY330/88	>250 µM
NNC(=O)c1ccncc1	-	MIC90	-	Clinical strains	>16 µg/mL
CCn1cc(C(=O)O)c(=O)c2cc(F)c(N3CCNCC3)cc21	-	MIC90	-	13 strains	>64 µg/mL
CCNCC1CCN(c2c(F)cc3c(=O)c(C(=O)O)cn4c3c2CCC4C)C1	-	MIC90	-	14 strains	>32 µg/mL
Cc1cc(-c2cc3c(cc2F)c(=O)c(C(=O)O)cn3C2CC2)cc(C)n1	-	MIC90	-	55 strains	3 µg/mL
CCn1cc(C(=O)O)c(=O)c2cc(F)c(N3CCN(C)CC3)cc21	pH 6.8	EC50	-	-	<10 µg/mL
CCCNC(=O)Nc1ccc(S(=O)(=O)Nc2cc(C)on2)cc1	21 d	MIC100	broth dilution / absorbance	330/88	1000 µM
NCC[C@H](O)C(=O)N[C@@H]1C[C@H](N)[C@@H](O[C@H]2O[C@H](CN)[C@@H](O)[C@H](O)[C@H]2O)[C@H](O)[C@H]1O[C@H]1O[C@H](CO)[C@@H](O)[C@H](N)[C@H]1O	-	MIC	-	ATCC 25291	8 µg/mL
CC1CN(c2c(F)cc3c(=O)c(C(=O)O)cn(C4CC4)c3c2Br)CCN1	-	MIC	-	14 strains	0.1–12.5 µg/mL
CCn1cc(C(=O)O)c(=O)c2cc(F)c(N3CCNCC3)cc21	-	MIC90	-	14 strains	32 µg/mL

The first 3 rows once more:

CO[C@H]1/C=C/O[C@@]2(C)Oc3c(C)c(O)c4c(O)c(c(N5CCN(Cc6c(C)cc(C)cc6C)CC5)c(O)c4c3C2=O)NC(=O)/C(C)=C\C=C\[C@H](C)[C@H](O)[C@@H](C)[C@@H](O)[C@@H](C)[C@H](OC(C)=O)[C@@H]1C ; read-out: MIC50 ; strain or isolate: 50 strains ; result: 0.06 µg/mL
CCN1CCN(c2c(F)cc3c(=O)c(C(=O)O)cn(C4CC4)c3c2OC)CC1 ; read-out: MIC ; strain or isolate: 14 strains ; result: 0.1–12.5 µg/mL
CC(N)C1CCN(c2nc3c(cc2F)c(=O)c(C(=O)O)cn3C2CC2)C1 ; read-out: MIC90 ; strain or isolate: 14 strains ; result: 32 µg/mL

An empty or dashed field is not shown. A number after MIC or MFC names an inhibition level or a share of isolates. ECn: concentration that inhibits the pathogen or its effect by n%. a–b is a range or a potency band.